Anti-infective test results gathered from many reports (values: NIAID ChemDB through PubChem).

Common to all: whole-cell or culture tests

An empty or dashed field is not shown. MIC50, MIC90 and the like: level of inhibition, or share of isolates inhibited. Conditions beyond the fields shown may differ between rows. a–b is a range or a potency band. ECn is the concentration giving n% inhibition of infection, replication or growth. Inhibition is in % at the dose shown (toxicity tests: loss of growth or viability).

| structure | species | strain | cell line | read by | measure | tested at | value |
|---|---|---|---|---|---|---|---|
| C(C#Cc1cccs1)#Cc1cccs1 | Mouse cytomegalovirus | - | 3T3-L1 | plaque count | EC50 | - | 0.062 µg/mL |
| O=c1[nH]c(=O)n([C@H]2C[C@H](O)[C@@H](CO)O2)cc1/C=C/Br | Adenovirus | TYPE 2 | HEL | cytopathic effect | EC50 | - | >1000 µM |
| S=c1nc[nH]c2c1ncn2C1CCCO1 | Dengue virus | TYPE 2 | LLC-MK2 | plaque count | inhibition | 10 µM | 56% |
| Cc1ccc(-c2ccc(C#CCCO)s2)s1 | Mouse cytomegalovirus | - | 3T3-L1 | plaque count | EC50 | - | 0.003 µg/mL |
| CC(C)N(CCn1c(Cn2nnc3ccccc32)nc2cc([N+](=O)[O-])ccc21)C(C)C | Respiratory syncytial virus | LONG | HEP-2 | - | inhibition | 4 µg/mL | 55% |
| OC[C@H]1O[C@@](CO)(O[C@H]2O[C@H](CO)[C@@H](O)[C@H](O)[C@H]2O)[C@@H](O[C@H]2O[C@H](CO)[C@@H](O)[C@H](O)[C@H]2O)[C@@H]1O | Herpes simplex virus 1 | KOS | HeLa | cytopathic effect | EC50 | - | >200 µg/mL |
| c1csc(-c2ccc(-c3cccs3)o2)c1 | Mouse cytomegalovirus | - | 3T3-L1 | plaque count | EC50 | - | 0.5 µg/mL |
| C[C@H](Cc1ccc(O)c(O)c1)[C@@H](C)Cc1ccc(O)c(O)c1 | Candida colliculosa | CCC 122-2000 | - | broth dilution | MIC100 | - | 250 µg/mL |
| Nc1nc(N)c2ncn(CCOCP(=O)(O)O)c2n1 | Varicella zoster virus | PMEA-resistant | HEL | plaque count | EC50 | - | 12.8 µg/mL |
| CC#Cc1ccc(-c2cccs2)s1 | Mouse cytomegalovirus | - | 3T3-L1 | plaque count | EC50 | - | 0.5 µg/mL |
| Nc1ccc(S(=O)(=O)Nc2cnc3ccccc3n2)cc1 | Cryptosporidium parvum | Human isolate | L929 | - | inhibition | 0.032 µg/mL | 40.29% |
| Cc1cn([C@H]2C[C@H](N=[N+]=[N-])[C@@H](CO)O2)c(=O)[nH]c1=O | HIV-2 | LAV-2 | CEM | virus yield | inhibition | 100 µM | 99.9% |
| C=C(C)CN(CC)c1c([N+](=O)[O-])cc(C(F)(F)F)cc1[N+](=O)[O-] | Toxoplasma gondii | RH | - | - | EC50 | - | 0.1 µM |
| CCCC(N)C1CCN(c2c(F)cn3c(=O)c(C(=O)O)cc(C4CC4)c3c2C)C1 | Enterococcus faecium | ATCC 8043 | - | - | MIC | - | 0.02 µg/mL |
| CCN(CC)CCCn1c(Cn2nc3ccccc3n2)nc2cc(C(C)=O)ccc21 | Respiratory syncytial virus | LONG | HEP-2 | - | inhibition | 4 µg/mL | 56% |
| OC[C@H]1O[C@@H](n2cnc3c(NC4CC4)cc(Cl)nc32)C[C@@H]1O | Bovine herpesvirus 1 | IRB-LA | MDBK | cytopathic effect | EC50 | - | >50 µM |
| CC(C)S(=O)(=O)n1c(N)nc2ccc(/C(=N/O)c3ccccc3)cc21 | Rhinovirus | Serotype 72 | HeLa | plaque count | EC50 | - | 0.03 µg/mL |
| C[C@@]1(O)[C@H](O)[C@@H](CO)O[C@H]1c1c[nH]c2c(N)ncnc12 | Hepatitis C virus | - | HepG2-T5B | MTT | inhibition | 50 µg/mL | 0% |
| NC1CCCCCCC1 | Influenza A virus | A/Maryland/104/68 | - | - | MIC | - | 0.1 µg/mL |
| Nc1nccc2c1ncn2[C@@H]1C=C(CO)[C@@H](O)[C@H]1O | Rotavirus A | - | MA-104 | virus yield | EC90 | - | 0.04 µg/mL |
| Nc1cc(Cl)nc2c1ncn2[C@H]1C[C@H](O)[C@@H](CO)O1 | Bovine herpesvirus 1 | IRB-LA | MDBK | cytopathic effect | EC50 | - | >50 µM |
| C[C@H]1[C@H](O)[C@@H](C)/C=C/C=C/C=C/C=C/C=C/C=C/C=C/[C@H](O[C@@H]2O[C@H](C)[C@@H](O)[C@H](N)[C@@H]2O)C[C@@H]2O[C@](O)(C[C@@H](O)C[C@@H](O)CC[C@H](O)[C@@H](O)C[C@@H](O)CC(=O)O[C@H]1C)C[C@H](O)[C@H]2C(=O)O | Cryptosporidium parvum | Calf isolate | L929 | - | inhibition | 0.032 µg/mL | -30.37% |
| CC(C)(C)OC(=O)N[C@@H]1CCCCC/C=C\[C@@H]2C[C@@]2(C(=O)NS(=O)(=O)C2CC2)NC(=O)[C@@H]2C[C@@H](OC(=O)N3Cc4cccc(F)c4C3)CN2C1=O | Hepatitis C virus | K3a/650 | Huh7.5 | antigen | EC50 | - | 2.29 µM |
| Nc1ccn(C[C@H]2COP(=O)(O)CO2)c(=O)n1 | Adenovirus | TYPE 2 | HEL | cytopathic effect | EC50 | - | 3.9 µM |
| NC(=O)c1ncn([C@@H]2O[C@H](CO)[C@@H](O)[C@H]2O)n1 | Respiratory syncytial virus | 20 | HEP-2 | plaque count | inhibition | 4 µg/mL | 54% |
| O=c1[nH]c(=O)n([C@@H]2O[C@H](CO)[C@@H](O)[C@@H]2O)cc1/C=C/Br | Varicella zoster virus | PFA-resistant/A | HEL | plaque count | EC50 | - | 0.00013 µg/mL |
| C[C@@]1(O)[C@H](O)[C@@H](CO)O[C@H]1n1ccc2c(N)ncnc21 | Hepatitis C virus | - | Hep3B-T5B | MTT | inhibition | 2 µg/mL | 0.13% |
| Nc1nc(Cl)nc2c1ncn2[C@@H]1O[C@H](CO)[C@@H](O)[C@H]1O | Bovine herpesvirus 1 | IRB-LA | MDBK | cytopathic effect | EC50 | - | >50 µM |
| CN(C)CCCn1c(Cn2nnc3ccccc32)nc2ccccc21 | Respiratory syncytial virus | LONG | HEP-2 | - | inhibition | 4 µg/mL | 100% |
| C=C1CCOC2(C(O)C(C)(O)CO)NC(=O)C1(O)NC2=O | Herpes simplex virus 1 | KOS | HeLa | cytopathic effect | EC50 | - | >200 µg/mL |
| Cc1c(N2CCCC2N)c(F)cn2c(=O)c(C(=O)O)cc(C3CC3)c12 | Enterococcus faecium | ATCC 8043 | - | - | MIC | - | 0.05 µg/mL |
| O=C(C[C@H]1NCCC[C@@H]1O)Cn1cnc2cc(Br)c(Cl)cc2c1=O | Cryptosporidium parvum | Calf isolate | L929 | - | inhibition | 4 µg/mL | 93.16% |
| CC(=O)NC[C@H]1CN(c2ccc(N3CCN(C(=O)CO)CC3)c(F)c2)C(=O)O1 | Streptococcus pneumoniae | Penicillin-resistant | - | - | MIC50 | - | 0.25–0.5 µg/mL |
| c1csc(-c2ccc(-c3cccs3)s2)c1 | Mouse cytomegalovirus | - | 3T3-L1 | plaque count | EC50 | - | 0.062 µg/mL |
| COC(=O)N[C@H](C(=O)N1CCC[C@H]1c1ncc(-c2ccc(-c3ccc(-c4cnc([C@@H]5CCCN5C(=O)[C@@H](NC(=O)OC)C(C)C)[nH]4)cc3)cc2)[nH]1)C(C)C | Hepatitis C virus | SA13 | Huh7.5 | antigen | EC50 | - | 0.00009 µM |
| COc1cc(Cc2cnc(N)nc2N)cc(OC)c1OC | Herpes simplex virus 1 | KOS | HeLa | cytopathic effect | EC50 | - | >300 µg/mL |
| OC[C@H]1O[C@@H](n2cnc3c(NC4CCCCCC4)ncnc32)C[C@@H]1O | Maedi-visna virus | KV1772 | Sheep chondrocytes G81092 | cytopathic effect | EC50 | - | 1.5 µM |
| CO[C@@H]1C[C@@H](C[C@H]2CC[C@H](C)[C@H]([C@@H](C)C(=O)O)O2)O[C@]2(O[C@](C)([C@H]3CC[C@@](C)([C@@H]4O[C@@H]([C@H]5O[C@@](O)(CO)[C@H](C)C[C@@H]5C)C[C@@H]4C)O3)C[C@H]2C)[C@@H]1C | Cryptosporidium parvum | Calf isolate | L929 | - | inhibition | 0.032 µg/mL | -17.38% |
| Nc1ncnc2c1ncn2C[C@@H](CO)OCP(=O)(O)O | Varicella zoster virus | PFA-resistant/B | HEL | plaque count | EC50 | - | 0.048 µg/mL |
| Nc1nc(Cl)cc2c1ncn2[C@@H]1O[C@H](CO)C[C@H]1O | Bovine herpesvirus 1 | IRB-LA | MDBK | cytopathic effect | EC50 | - | >50 µM |
| Nc1ccn([C@H]2CC[C@@H](CO)O2)c(=O)n1 | Adenovirus | TYPE 2 | HEL | - | EC50 | - | 2 µM |
| NC(=O)c1ncn([C@@H]2O[C@H](CO)[C@@H](O)[C@H]2O)n1 | Respiratory syncytial virus | N869 | HEP-2 | plaque count | EC50 | - | 11.9 µM |
| CC[C@H]1OC(=O)[C@H](C)[C@@H](O[C@H]2C[C@@](C)(OC)[C@@H](O)[C@H](C)O2)[C@H](C)[C@@H](O[C@@H]2O[C@H](C)C[C@H](N(C)C)[C@H]2O)[C@](C)(OC)C[C@@H](C)C(=O)[C@H](C)[C@@H](O)[C@]1(C)O | Staphylococcus aureus | 20 strains (methicillin-susceptible) | - | - | MIC50 | - | 0.0625 µg/mL |
| OC[C@@H]1CC[C@H](n2cnc3c(NC4CCCCCC4)nc(Cl)nc32)O1 | Bovine herpesvirus 1 | IRB-LA | MDBK | cytopathic effect | EC50 | - | >50 µM |
| C#CC[C@@H](C(=O)N[C@H](/C=C/C(=O)OCC)C[C@@H]1CCNC1=O)n1cccc(NC(=O)c2cc(C)on2)c1=O | Rhinovirus | Clinical isolate 15 (serotype 23) | H1-HELA | cytopathic effect / XTT | inhibition | 0.141 µM | 90% |
| N#CC(c1ccc(Cl)cc1)c1c(Cl)cc(-n2ncc(=O)[nH]c2=O)cc1Cl | Cryptosporidium parvum | Calf isolate | L929 | - | inhibition | 4 µg/mL | 15.04% |
| N[C@@H](C(=O)N[C@@H]1C(=O)N2C(C(=O)O)=C(Cl)CS[C@H]12)c1ccccc1 | Staphylococcus aureus | 30 strains | - | - | MIC50 | - | 1 µg/mL |
| NC(=O)/C=C/C1=NCCC1 | Herpes simplex virus 1 | KOS | HeLa | cytopathic effect | EC50 | - | >200 µg/mL |
| COc1cc2oc(=O)ccc2cc1CC(O)C(C)(C)O | Klebsiella pneumoniae | ESBL-3894 | - | - | MIC | - | >250 µg/mL |
| CO[C@@H]1[C@@H](O[C@@H]2O[C@H](C)[C@@H](O[C@H]3C[C@@](C)(O)[C@@H](O)[C@H](C)O3)[C@H](N(C)C)[C@H]2O)[C@@H](CC=O)C[C@@H](C)[C@@H](O[C@H]2CC[C@H](N(C)C)[C@H](C)O2)/C=C/C=C/C[C@@H](C)OC(=O)C[C@H]1O | Cryptosporidium parvum | Calf isolate | L929 | - | inhibition | 0.032 µg/mL | 26.6% |
| CN[C@@H]1CN(c2c(F)cn3c(=O)c(C(=O)O)cc(C4CC4)c3c2C)CC12CC2 | Enterococcus faecium | 21 strains (vancomycin-susceptible) | - | - | MIC | - | 1 µg/mL |
| CCOC(=O)c1ccc(-c2ccc(I)s2)s1 | Mouse cytomegalovirus | - | 3T3-L1 | plaque count | EC50 | - | 0.062 µg/mL |
| Nc1nc2c(ncn2CCC(CO)CO)c(=O)[nH]1 | Varicella zoster virus | PFA-resistant/B | HEL | plaque count | EC50 | - | 1.69 µg/mL |
| Cc1c(N2C[C@@H](N)[C@@H](C3CC3)C2)c(F)cn2c(=O)c(C(=O)O)cc(C3CC3)c12 | Enterococcus faecium | ATCC 8043 | - | - | MIC | - | 0.05 µg/mL |
| C(#Cc1cccs1)c1ccccc1 | Mouse cytomegalovirus | - | 3T3-L1 | plaque count | EC50 | - | >1 µg/mL |
| CO[C@H]1/C=C/O[C@@]2(C)Oc3c(C)c(O)c4c(O)c(c5c(c4c3C2=O)NC2(CCN(CC(C)C)CC2)N=5)=NC(=O)/C(C)=C\C=C\[C@H](C)[C@H](O)[C@@H](C)[C@@H](O)[C@@H](C)[C@H](OC(C)=O)[C@@H]1C | Staphylococcus aureus | SMITH | - | - | MIC | - | 0.0313 µg/mL |
| Nc1cc(OC[C@@H](CO)OCP(=O)(O)O)nc(N)n1 | Adenovirus | TYPE 2 | HEL | PCR | EC50 | - | 13 µM |
| CC1(C)N=C(N)N=C(N)N1c1ccc(Cl)cc1 | Cryptosporidium parvum | Calf isolate | L929 | - | inhibition | 4 µg/mL | 22.46% |
| Nc1ncnc2c1ncn2[C@@H]1C=C(CO)[C@@H](O)[C@H]1O | Semliki Forest virus | - | VERO | cytopathic effect | EC50 | - | >10 µg/mL |
| CO/N=C(/C(=O)N[C@@H]1C(=O)N2C(C(=O)O)=C(COC(N)=O)CS[C@H]12)c1ccco1 | Haemophilus influenzae | 44 strains | - | - | MIC50 | - | 8 µg/mL |
| CCCCc1cc2c(=O)c(C(=O)OC)c[nH]c2cc1OCc1ccccc1 | Cryptosporidium parvum | Calf isolate | L929 | - | inhibition | 4 µg/mL | 30% |
| CC1(C)S[C@@H]2[C@H](NC(=O)[C@H](N)c3ccc(O)cc3)C(=O)N2[C@H]1C(=O)O | Staphylococcus aureus | 30 strains | - | - | MIC50 | - | 0.25 µg/mL |
| C(C#Cc1ccccc1)#Cc1ccccc1 | Mouse cytomegalovirus | - | 3T3-L1 | plaque count | EC50 | - | 0.75 µg/mL |

5 of the rows above, restated:

structure	species	strain	cell line	read by	measure	tested at	value
Nc1nccc2c1ncn2[C@@H]1C=C(CO)[C@@H](O)[C@H]1O	Rotavirus A	-	MA-104	virus yield	EC90	-	0.04 µg/mL
CN(C)CCCn1c(Cn2nnc3ccccc32)nc2ccccc21	Respiratory syncytial virus	LONG	HEP-2	-	inhibition	4 µg/mL	100%
NC(=O)c1ncn([C@@H]2O[C@H](CO)[C@@H](O)[C@H]2O)n1	Respiratory syncytial virus	20	HEP-2	plaque count	inhibition	4 µg/mL	54%
C=C(C)CN(CC)c1c([N+](=O)[O-])cc(C(F)(F)F)cc1[N+](=O)[O-]	Toxoplasma gondii	RH	-	-	EC50	-	0.1 µM
Nc1ccc(S(=O)(=O)Nc2cnc3ccccc3n2)cc1	Cryptosporidium parvum	Human isolate	L929	-	inhibition	0.032 µg/mL	40.29%